The structures appear in SMILES notation.

By UniProt entry, the sequences of proteins in these tests, tags left out. Residues count along the entry.
UniProt A0A0D1C5E3, 24-129 limits assumed: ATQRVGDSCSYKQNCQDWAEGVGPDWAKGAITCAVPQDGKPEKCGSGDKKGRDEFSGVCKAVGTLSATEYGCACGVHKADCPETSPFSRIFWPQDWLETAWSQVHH
UniProt A0A0D1CU07, 29-515 limits assumed: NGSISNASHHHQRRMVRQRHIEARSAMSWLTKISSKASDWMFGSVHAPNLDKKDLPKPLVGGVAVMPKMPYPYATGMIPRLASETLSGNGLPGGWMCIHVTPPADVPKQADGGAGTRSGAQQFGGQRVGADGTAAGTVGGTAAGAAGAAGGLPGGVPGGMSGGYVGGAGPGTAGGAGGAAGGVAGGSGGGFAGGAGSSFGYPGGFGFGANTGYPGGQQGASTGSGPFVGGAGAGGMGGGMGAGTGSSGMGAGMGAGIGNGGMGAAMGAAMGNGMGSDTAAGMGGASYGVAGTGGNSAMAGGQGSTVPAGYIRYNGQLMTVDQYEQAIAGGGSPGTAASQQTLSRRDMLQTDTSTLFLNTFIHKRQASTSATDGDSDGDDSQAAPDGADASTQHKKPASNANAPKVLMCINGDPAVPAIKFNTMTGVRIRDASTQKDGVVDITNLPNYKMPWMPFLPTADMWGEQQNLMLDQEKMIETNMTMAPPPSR
UniProt A0A0D1EAN2, 25-327 limits assumed: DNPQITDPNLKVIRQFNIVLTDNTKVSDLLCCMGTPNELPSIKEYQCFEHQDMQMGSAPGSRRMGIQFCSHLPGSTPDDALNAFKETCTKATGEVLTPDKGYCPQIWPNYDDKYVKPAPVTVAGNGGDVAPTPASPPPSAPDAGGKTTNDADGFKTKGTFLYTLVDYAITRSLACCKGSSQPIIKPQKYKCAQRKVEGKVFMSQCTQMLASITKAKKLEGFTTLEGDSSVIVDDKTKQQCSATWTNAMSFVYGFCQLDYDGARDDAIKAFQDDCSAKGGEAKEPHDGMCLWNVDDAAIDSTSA

Results on seven compounds are retold here after EP4039094A1, “NOVEL ANTIFUNGAL COMPOUNDS” (Max-Planck-Gesellschaft zur Förderung der Wissenschaften …, priority 2021, dated 2022).

This experiment addresses Stp1/Stp4/Stp3 subcomplex (Mycosarcoma maydis, UniProt A0A0D1C5E3+A0A0D1CU07+A0A0D1EAN2). The experiment is described as follows: Alamar Blue viability assay in S. cerevisiae 2-hybrid strain NL73 (viability depends on Stp complex formation). Format: cell-based, U. maydis. To be noted: for activity in the Alamar Blue assay with NL73: result in words.
Where [1] appears, read: inhibitory activity on NL73 viability, Table 6.

Turning to `O=c1nc(SCc2ccc(F)cc2)c2c(n1C1CCCC1)CCC2`, the “activity in the Alamar Blue assay with NL73” value (“activity” below) is listed as “appreciable activity”. Also, where the note is “Alamar Blue assay, Table 7”, the IC50 (usually the concentration that inhibits the measured activity by half) was 810 nM.
Consider `COc1ccc(-n2c3c(c(SCc4ccccc4C)nc2=O)CCC3)cc1`, for which the half-maximal inhibitory concentration (IC50) under setting [1] worked out at 4900 nM.
Take `CCn1c2c(c(SC(N)c3cccc4ccccc34)nc1=O)CCC2` (stereo not shown): the IC50 under setting [1] stood at 2000 nM.
Same read-out and setting: under `CCOc1ccc(-n2c3c(c(SCc4ccccc4F)nc2=O)CCC3)cc1` stands 9400 nM.
Take `CCCn1c2c(c(SCc3ccc(C)cc3)nc1=O)CCC2`: the “activity” value is on record as “appreciable activity”. Moreover, the IC50 (Alamar Blue assay, Table 7) came out at 5000 nM.
Under setting [1], `N#CCSc1nc(=O)n(C2CCCC2)c2c1CCC2` returned an IC50 of 2000 nM.
As for `O=c1nc(SCc2ccccc2F)c2c(n1C1CCCC1)CCC2`, the “activity” value is recorded as “appreciable activity”. Under “Alamar Blue assay, Table 7”, this compound yielded a half-inhibitory concentration (IC50) of 600 nM.
